The supplement of paper PMC9931576
Human monoclonal antibodies against the spike receptor-binding domain (heavy:light variable regions). IC50 against pseudoviruses bearing the spike of naturally observed variants; lower = stronger; >10 µg/ml means not reached at the top dose. No active / inactive call. The stated detection limit is 0.0005 µg/ml; values near or below 0.001 µg/ml lie at the floor of the assay.

Key:
Assay in all cases: pseudovirus neutralization IC50; higher = weaker neutralization
[1] = molecular target: SARS-CoV-2 Omicron BA.1 spike pseudovirus
Description: (§1)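 Single-round VSV luciferase pseudovirus mixed with antibody dilutions for 1 h and put on Huh-7 cells for about a day; IC50 from the dose curve.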

[2] = molecular target: SARS-CoV-2 Omicron BA.2 spike pseudovirus
Description: as §1

[3] = molecular target: SARS-CoV-2 Omicron BA.2.75 spike pseudovirus
Description: as §1

[4] = molecular target: SARS-CoV-2 Omicron BA.5 spike pseudovirus
Description: as §1

[5] = molecular target: SARS-CoV-2 Omicron BQ.1.1 spike pseudovirus
Description: as §1

[6] = molecular target: SARS-CoV-2 Omicron XBB spike pseudovirus
Description: as §1

[7] = molecular target: SARS-CoV-2 early D614G spike pseudovirus
Description: as §1

B1: BD55-6328 (protein)
chain 1: QVQLVESGRGVAQPGRSLRLSCAASGFTFSHYGMHWVRQAPGKGLEWVAVISYDGSDKYYEDSVKGRFTISRDNSKNTLYLQMNSLRAEDTAVYYCAKQMGPYCSGHNCYSGSFDYWGQGILVTVSS
chain 2: DIQMTQSPSSLSASVGDRVTITCQASQDISNYLNWYQQKPGKAPKLLIYGASNLETGVPSRFSGSGSGTDFTFTISSLQPEDIATYYCQRYDNVPLTFGQGTRLEIK
[1]
  pseudovirus neutralization IC50: > 10 µg/mL
[2]
  pseudovirus neutralization IC50: > 10 µg/mL
[3]
  pseudovirus neutralization IC50: > 10 µg/mL
[4]
  pseudovirus neutralization IC50: > 10 µg/mL
[5]
  pseudovirus neutralization IC50: > 10 µg/mL
[6]
  pseudovirus neutralization IC50: > 10 µg/mL
[7]
  pseudovirus neutralization IC50: 3.53 µg/mL

B2: BD55-1225 (protein)
chain 1: QLQLQESGPGLVKPSETLSLTCTVSGASIRGNTYFWGWLRQPPGKGLEWIATMSYTGDSYYTPSLKSRVTISVDTSKNQFSLKLNSVTAADTAVYYCARLTWLRSPFDSWGQGSLVTVSS
chain 2: NFMLTQPHSVSESPGKTVTISCTGSGGFIASNYVQWYQQRPGSAPIVVIYEDSQRPSGVSERFSGSVDSSSNFASLTITGLKTEDEADYYCQSYDVNMHWVFGGGTKLTVL
[1]
  pseudovirus neutralization IC50: > 10 µg/mL
[2]
  pseudovirus neutralization IC50: > 10 µg/mL
[3]
  pseudovirus neutralization IC50: > 10 µg/mL
[4]
  pseudovirus neutralization IC50: > 10 µg/mL
[5]
  pseudovirus neutralization IC50: > 10 µg/mL
[6]
  pseudovirus neutralization IC50: > 10 µg/mL
[7]
  pseudovirus neutralization IC50: 0.363 µg/mL

B3: BD55-6334 (protein)
chain 1: QVQLVESGGGVVQPGKSLRLSCAASGFSFSDYGFHWVRQAPGKGLEWVAIVWNDGSQKYYADSVKGRFTVSRDNSKNTLYLQMNSLRAEDTAMYYCARDSLCTGGRCFFDYNWFDAWGQGTLVSVSS
chain 2: EIVLTQSPATLSLSPGERATLSCRASQSVSTNLAWYQHKPGQAPRLLIYDASARATGISARFSGSGSGTDFTLTISSLEPEDFAVYYCQQRHTWPPAYTFGQGTKLEL
[1]
  pseudovirus neutralization IC50: > 10 µg/mL
[2]
  pseudovirus neutralization IC50: > 10 µg/mL
[3]
  pseudovirus neutralization IC50: > 10 µg/mL
[4]
  pseudovirus neutralization IC50: > 10 µg/mL
[5]
  pseudovirus neutralization IC50: > 10 µg/mL
[6]
  pseudovirus neutralization IC50: > 10 µg/mL
[7]
  pseudovirus neutralization IC50: 2.38 µg/mL

B4: BD55-6338 (protein)
chain 1: EVQLVQSGAEVKKLGESLKISCKGSGYNFSRFWIGWVRQRPGKGLEWMGTIHPGHSETTYSPSVQGQVTISADKSINTAYIQWSSLKASDTAIYFCARRGSLHSSGLTEIYYFDYWGQGSLVSVSS
chain 2: NFMLTQPHSVSGSPGETVTISCTGSGGSIASTYVQWYQQRPGSAPTTVIYEDNQRPSGVPDRFSVSIDSSSNAASLIISGLKTEDEADYYCQSSDSRTSYWVFGGGTKLTVL
[1]
  pseudovirus neutralization IC50: > 10 µg/mL
[2]
  pseudovirus neutralization IC50: > 10 µg/mL
[3]
  pseudovirus neutralization IC50: > 10 µg/mL
[4]
  pseudovirus neutralization IC50: > 10 µg/mL
[5]
  pseudovirus neutralization IC50: > 10 µg/mL
[6]
  pseudovirus neutralization IC50: > 10 µg/mL
[7]
  pseudovirus neutralization IC50: > 10 µg/mL

B5: BD55-6351 (protein)
chain 1: EVQLVESGGGLVQPGGSLRLSCSASGFTFNNCAMHWVRQAPGNRLEHVSAVGSDGVVTDYADSVKGRFTISRDNSKNMLFLQMSSLKPEDTAVYYCVKDHDTTYYALFDYWGQGTLVTVSS
chain 2: DIQMTQSPSSLSASVGDRVTITCRASQSISMYLNWYQQKPGKAPKLLIYSTSSLQSGVPSRFSGSGSGTDFTLTINSLQPEDFATYYCQQSYTTPYTFGQGTKLEIK
[1]
  pseudovirus neutralization IC50: > 10 µg/mL
[2]
  pseudovirus neutralization IC50: > 10 µg/mL
[3]
  pseudovirus neutralization IC50: > 10 µg/mL
[4]
  pseudovirus neutralization IC50: > 10 µg/mL
[5]
  pseudovirus neutralization IC50: > 10 µg/mL
[6]
  pseudovirus neutralization IC50: > 10 µg/mL
[7]
  pseudovirus neutralization IC50: > 10 µg/mL

B6: BD55-6355 (protein)
chain 1: QVQLQESGPGLVKASETLSLTCNVSGSSLSSFHWSWIRQSAGKGLEWIGLIYISGSTTYNPSLKSRVSMSLDTSNKQFSLKLASVTAADTAIYYCARGYCGSTNCYGWFDPWGQGTLVTVSS
chain 2: DIQMTQSPSTLSASVGDRVTITCRASQSISSWLAWYQQKPGKAPKLLIYKASSLESGVPSRFSGSGSGTEFTLTITSLQPDDFATYYCQQYKSYWTFGQGTKVEIK
[1]
  pseudovirus neutralization IC50: > 10 µg/mL
[2]
  pseudovirus neutralization IC50: > 10 µg/mL
[3]
  pseudovirus neutralization IC50: > 10 µg/mL
[4]
  pseudovirus neutralization IC50: > 10 µg/mL
[5]
  pseudovirus neutralization IC50: > 10 µg/mL
[6]
  pseudovirus neutralization IC50: > 10 µg/mL
[7]
  pseudovirus neutralization IC50: > 10 µg/mL
